Reference: PubChem BioAssay AID1549 (Sanford-Burnham Center for Chemical Genomics, 2009)
The source made the active and inactive calls. How the calls were made is not given here.

Target: Influenza A virus M2 proton channel (A/TW/4845/1999 H1N1)
Experiment: NMR binding screen, influenza A virus M2 proton channel, Kd (AID 1549)
Settings: M2 protein

OC1CN2CCC1CC2 (configuration not stated)
Kd: inactive: > 4 mM

CP(N)(=O)Oc1ccc(Cl)cc1 (configuration not stated)
Kd: inactive: > 4 mM
